Laboratory results: publication PMC5469503 (PLoS Pathogens, 2017)

Target: SidK(16-278), N-terminal domain of SidK (L. pneumophila strain Philadelphia 1)

In the case of SidK(16-278), N-terminal domain of SidK, the percent eluting as apparent dimer is reported as 10% and the percent eluting as monomer is reported as 90%.
